Pooled drug test results. Numbers come from NIAID ChemDB, via PubChem.

Shared fields: growth or infection tests; organism: Herpes simplex virus 1; cell line: HEL; endpoint: EC50

Lines come from different laboratories, so protocols vary. ECn: concentration that inhibits the pathogen or its effect by n%. Blank or dashed fields: not listed here.

structure | strain or isolate | read by | result
O=c1[nH]c(=O)n([C@@H]2O[C@H](CO)[C@@H](O)[C@@H]2O)cc1/C=C/Cl | - | plaque count | 0.086 µM
O=C(O)P(=O)(O)O | KOS | cytopathic effect | 32 µg/mL
Nc1nc(N)c2ncn(CCOCP(=O)(O)O)c2n1 | KOS GCV-resistant | cytopathic effect | 7.2 µg/mL
C#Cc1cn([C@H]2C[C@H](O)[C@@H](CO)O2)c(=O)[nH]c1=O | - | plaque count | 2.54 µM
Nc1nc2c(ncn2CCC(CO)CO)c(=O)[nH]1 | KOS HPMPC-resistant | cytopathic effect | 0.026 µg/mL
Nc1nc(N)c2ncn(CCOCP(=O)(O)O)c2n1 | PCV-resistant/B | cytopathic effect | 3.3 µg/mL
Nc1ncc2c(ncn2COC(CO)CO)n1 | KOS PMEA-resistant | cytopathic effect | 0.54 µg/mL
Nc1nc2c(ncn2COC(CO)CO)c(=O)[nH]1 | PCV-resistant/A | cytopathic effect | 1.75 µg/mL
Cc1cn([C@@H]2O[C@H](CO)[C@@H](O)[C@@H]2O)c(=O)[nH]c1=O | - | plaque count | 1.78 µM
C[C@H](N)C(=O)OCP(=O)(OC[C@H]1O[C@@H](n2cnc3c(Cl)nccc32)C[C@@H]1O)Oc1ccccc1 | KOS | - | >100 µM
Nc1nc2c(ncn2COC(CO)CO)c(=O)[nH]1 | KOS | cytopathic effect | 0.001 µg/mL
CC#Cc1cn([C@H]2C[C@H](O)[C@@H](CO)O2)c(=O)[nH]c1=O | - | plaque count | 76 µM
Nc1ncnc2c1ncn2[C@@H]1O[C@H](CO)[C@@H](O)[C@@H]1O | KOS ACV-resistant | cytopathic effect | 12.3 µg/mL
Nc1ccn(C[C@@H](CO)OCP(=O)(O)O)c(=O)n1 | PCV-resistant/A | cytopathic effect | 0.33 µg/mL
Nc1ncnc2c1ccn2[C@H]1C[C@H](O)[C@@H](COP(=O)(O)COC(=O)[C@@H](N)CC(=O)O)O1 | KOS | - | >100 µM
Cc1cn([C@@H]2O[C@H](CO)[C@@H](O)[C@@H]2O)c(=O)[nH]c1=O | KOS PFA-resistant | cytopathic effect | 0.48 µg/mL
Cc1cn([C@@H]2O[C@H](CO)C[C@@H]2O)c(=O)[nH]c1=O | - | plaque count | >1322 µM
CC(C)(C)C(=O)OCOC(=O)CN(CC(=O)OCOC(=O)C(C)(C)C)P(=O)(OC[C@H]1O[C@@H](n2cnc3c(Cl)nccc32)C[C@@H]1O)Oc1ccccc1 | KOS | - | >20 µM

Repeating the final 3 entries:

structure | strain or isolate | read by | result
Cc1cn([C@@H]2O[C@H](CO)[C@@H](O)[C@@H]2O)c(=O)[nH]c1=O | KOS PFA-resistant | cytopathic effect | 0.48 µg/mL
Cc1cn([C@@H]2O[C@H](CO)C[C@@H]2O)c(=O)[nH]c1=O | - | plaque count | >1322 µM
CC(C)(C)C(=O)OCOC(=O)CN(CC(=O)OCOC(=O)C(C)(C)C)P(=O)(OC[C@H]1O[C@@H](n2cnc3c(Cl)nccc32)C[C@@H]1O)Oc1ccccc1 | KOS | - | >20 µM